# HIV-1 5' UTR: DMS reactivities by position

RNA: 5' end of the HIV-1 NL4-3 genome, made in vitro. Positions 1-437 read:
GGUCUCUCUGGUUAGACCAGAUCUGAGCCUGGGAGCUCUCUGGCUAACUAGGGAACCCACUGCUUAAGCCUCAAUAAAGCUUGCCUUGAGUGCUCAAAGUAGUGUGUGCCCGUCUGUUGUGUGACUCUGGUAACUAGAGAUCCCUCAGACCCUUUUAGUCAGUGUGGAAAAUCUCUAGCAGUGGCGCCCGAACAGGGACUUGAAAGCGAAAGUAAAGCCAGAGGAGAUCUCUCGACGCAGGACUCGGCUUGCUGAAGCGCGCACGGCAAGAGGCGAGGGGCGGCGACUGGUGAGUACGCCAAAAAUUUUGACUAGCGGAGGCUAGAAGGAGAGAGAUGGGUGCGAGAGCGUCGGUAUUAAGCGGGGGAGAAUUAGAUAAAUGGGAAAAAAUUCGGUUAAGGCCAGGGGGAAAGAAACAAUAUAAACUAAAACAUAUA

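Randomly mutated transcripts starting with one, two or three G (1G, 2G, 3G), capped or uncapped, were folded for 30 min at 37 °C. Monomer and dimer bands were cut from native gels after folding in high salt (300 mM KCl, 5 mM MgCl2) or low salt (40 mM KCl, 0.1 mM MgCl2). Gel slices were treated with 170 mM dimethyl sulfate for 15 min at 37 °C and read by mutational profiling against an ethanol control.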

Values are winsor-normalised DMS reactivities of A and C; higher means more reactive, usually unpaired.
One numbering serves 1G, 2G and 3G.
A position is written with its base.

For A89 the result was 1G uncapped low-salt monomer 0.52; 3G capped high-salt dimer 0.65. C93 read 1G uncapped low-salt monomer 0.05; 3G capped high-salt dimer 0.09. C95 gave 1G uncapped low-salt monomer 0.54; 3G capped high-salt dimer 0.39. With A96 the assay gave 1G uncapped low-salt monomer 0.28; 3G capped high-salt dimer 0.28. With A97 the assay gave 1G uncapped low-salt monomer 0.46; 3G capped high-salt dimer 0.52. With A98 the assay gave 1G uncapped low-salt monomer 0.38; 3G capped high-salt dimer 0.54. A101 read 1G uncapped low-salt monomer 0.19; 3G capped high-salt dimer 0.28. With C109 the assay gave 1G uncapped low-salt monomer 0.13; 3G capped high-salt dimer 0.09.

C110 read 1G uncapped low-salt monomer 0.14; 3G capped high-salt dimer 0.08. With C111 the assay gave 1G uncapped low-salt monomer 0.26; 3G capped high-salt dimer 0.14. With C114 the assay gave 1G uncapped low-salt monomer 0.24; 3G capped high-salt dimer 0.19. A124 gave 1G uncapped low-salt monomer 1.07; 3G capped high-salt dimer 1.08. With C125 the assay gave 1G uncapped low-salt monomer 0.09; 3G capped high-salt dimer 0.06. C127 read 1G uncapped low-salt monomer 0.05; 3G capped high-salt dimer 0.03. With A132 the assay gave 1G uncapped low-salt monomer 0.56; 3G capped high-salt dimer 0.48. A133 read 1G uncapped low-salt monomer 1.58; 3G capped high-salt dimer 1.32.

For C134 the result was 1G uncapped low-salt monomer 0.14; 3G capped high-salt dimer 0.16. With A136 the assay gave 1G uncapped low-salt monomer 0.10; 3G capped high-salt dimer 0.10. A138 read 1G uncapped low-salt monomer 0.12; 3G capped high-salt dimer 0.11. A140 gave 1G uncapped low-salt monomer 0.39; 3G capped high-salt dimer 0.35. With C142 the assay gave 1G uncapped low-salt monomer 0.07; 3G capped high-salt dimer 0.06. C143 read 1G uncapped low-salt monomer 0.05; 3G capped high-salt dimer 0.03. C144 read 1G uncapped low-salt monomer 0.05; 3G capped high-salt dimer 0.03. For C146 the result was 1G uncapped low-salt monomer 0.13; 3G capped high-salt dimer 0.11.

With A147 the assay gave 1G uncapped low-salt monomer 0.42; 3G capped high-salt dimer 0.42. For A149 the result was 1G uncapped low-salt monomer 0.11; 3G capped high-salt dimer 0.06. With C150 the assay gave 1G uncapped low-salt monomer 0.07; 3G capped high-salt dimer 0.04. C151 gave 1G uncapped low-salt monomer 0.84; 3G capped high-salt dimer 0.68.

A selection of 2 entries from above:

| position | 1G uncapped low-salt monomer | 3G capped high-salt dimer |
|---|---|---|
| A89 | 0.52 | 0.65 |
| A97 | 0.46 | 0.52 |

Reference: Ye et al. 2022, doi:10.1038/s41594-022-00746-2.